Anti-infective test results gathered from many reports (values: NIAID ChemDB through PubChem).

All rows: cytotoxicity tests; cells: K562; measure: CC50

CCn: concentration that lowers growth or viability of the cells by n%. Blank or dashed fields: not listed here. Conditions beyond the fields shown may differ between rows.

SMILES	read by	value
COc1cc([C@@H]2c3cc4c(cc3[C@@H](O[C@@H]3O[C@@H]5CO[C@@H](C)O[C@H]5[C@H](O)[C@H]3O)[C@H]3COC(=O)[C@H]23)OCO4)cc(OC)c1O	-	0.3 µg/mL
CCOC(=O)[C@@]1(C)CC[C@]2(C)CC[C@]3(C)C(=CC(=O)[C@@H]4[C@@]5(C)CC/C(=N\OCc6ccc(C(=O)OC)o6)C(C)(C)[C@@H]5CC[C@]43C)[C@@H]2C1	MTT	18.11 µM
N#Cc1cnn(Cc2ccccc2)c1/N=c1\ssnc1Cl	-	5 µM
O=[N+]([O-])c1c(N2CC[N+]3(CC2)CC[N+]2(CCNCC2)CC3)ncnc1N1CC[N+]2(CC1)CC[N+]1(CCNCC1)CC2	-	>232.4 µg/mL
CCOC(=O)[C@@]1(C)CC[C@]2(C)CC[C@]3(C)C(=CC(=O)[C@@H]4[C@@]5(C)CC/C(=N\OCc6ccc(C(F)(F)F)cc6)C(C)(C)[C@@H]5CC[C@]43C)[C@@H]2C1	MTT	16.14 µM
N#Cc1ncn(CCc2ccccc2)c1/N=c1\ssnc1Cl	-	4 µM
NN1CC[N+]2(CC1)CC[N+]1(CCN(N)CC1)CC2	-	187 µg/mL
Cc1ccccc1Cn1nnc(C#N)c1/N=c1\ssnc1Cl	-	8 µM
CCN(CC)C(=S)Sc1ncnc(N2CC[N+]3(CC2)CC[N+]2(CCN(c4ncnc(SC(=S)N(CC)CC)c4[N+](=O)[O-])CC2)CC3)c1[N+](=O)[O-]	-	>224.2 µg/mL
CCOC(=O)[C@@]1(C)CC[C@]2(C)CC[C@]3(C)C(=CC(=O)[C@@H]4[C@@]5(C)CC/C(=N\OCc6ccc(F)c(F)c6)C(C)(C)[C@@H]5CC[C@]43C)[C@@H]2C1	MTT	22.42 µM
[O-][n+]1onc2c(N3CC[N+]4(CC3)CC[N+]3(CCN(c5ncnc6no[n+]([O-])c56)CC3)CC4)ncnc21	-	>351.2 µg/mL
Cc1cc(O)c2c(c1)C(=O)c1cc(OCC(=O)c3ccccc3)cc(O)c1C2=O	MTT	>100 µM
CCOC(=O)[C@@]1(C)CC[C@]2(C)CC[C@]3(C)C(=CC(=O)[C@@H]4[C@@]5(C)CC/C(=N\OCc6ccc(C#N)cc6)C(C)(C)[C@@H]5CC[C@]43C)[C@@H]2C1	MTT	>100 µM
N#Cc1cnn(CCCc2ccccc2)c1/N=c1\ssnc1Cl	-	5 µM
CCOC(=O)[C@@]1(C)CC[C@]2(C)CC[C@]3(C)C(=CC(=O)[C@@H]4[C@@]5(C)CC/C(=N\OCc6ccccc6C#N)C(C)(C)[C@@H]5CC[C@]43C)[C@@H]2C1	MTT	55.24 µM
CSc1nc(Cl)c(C=O)c(N2CC[N+]3(CC2)CC[N+]2(CCN(c4nc(SC)nc(Cl)c4C=O)CC2)CC3)n1	-	>55.2 µg/mL
CCOC(=O)[C@@]1(C)CC[C@]2(C)CC[C@]3(C)C(=CC(=O)[C@@H]4[C@@]5(C)CC/C(=N\OCc6cccc7ccccc67)C(C)(C)[C@@H]5CC[C@]43C)[C@@H]2C1	MTT	>100 µM
CN1CCc2c(sc(/N=c3\ssnc3Cl)c2C#N)C1	-	7 µM

3 of the rows above, restated:

SMILES,read by,value
Cc1cc(O)c2c(c1)C(=O)c1cc(OCC(=O)c3ccccc3)cc(O)c1C2=O,MTT,>100 µM
N#Cc1ncn(CCc2ccccc2)c1/N=c1\ssnc1Cl,-,4 µM
[O-][n+]1onc2c(N3CC[N+]4(CC3)CC[N+]3(CCN(c5ncnc6no[n+]([O-])c56)CC3)CC4)ncnc21,-,>351.2 µg/mL